Assay results from US5334583A (priority 1982, dated 1994).

What was measured:
Format in all cases: in vivo
Encephalomyocarditis = assay: Survival of mice infected intranasally with lethal dose of Encephalomyocarditis virus; conditions: oral, control 30
Herpes Simplex 1/TUP = assay: Survival of mice infected intranasally with lethal dose of Herpes Simplex 1/TUP; conditions: intranasal, control 20
Experimental: Groups of 30, 40 or 50 female MF-2f SPF mice each having a body weight of 14-16 g, or of 12-14 g in the case of tests with herpes simplex 1 viruses, are infected intranasally, under light anaesthesia using a mixture of equal parts of ether, ethanol and chloroform, with lethal doses (approximately LD80-90; number of plaque-forming units [PFU] see Table 1 ) of the undermentioned virus strains in the form of 0.05 ml in each case of a suspension of the viruses.
At the time indicated below (days) in relation to the day of infection, 10 or 20 of these mice are administered once (single dose) the quantities indicated in Table 1 of the active ingredient, the sodium salt of N-acetylmuramyl-L-alanyl-D-isoglutaminyl-L-alanine-2-(1,2-dipalmitoyl-sn-glycero-3-hydroxyphosphoryloxy)-ethylamide (compound I), in 0.05 ml or 0.1 ml of phosphate-buffered salt solution (PBS) or in 0.2 ml of a 0.05 % by weight solution of sodium carboxymethylcellulose in double-distilled water, by means of intranasal, intravenous or oral administration respectively, in the manner indicated in Table 1 .
The remainder of the above-mentioned mice, that is 20 or 30, serve as the control, that is to say they either receive no treatment or are given a placebo.
The intranasal administration of compound I is effected under light anaesthesia using a mixture of equal parts of diethyl ether, ethanol and chloroform.

Herpes Simplex 1/Virtue = assay: Survival of mice infected intranasally with lethal dose of Herpes Simplex 1/Virtue; conditions: intranasal, control 40
[1] = test system: Influenza B/Hong Kong/5/72; assay: Survival of mice infected intranasally with lethal dose of Influenza B/Hong Kong/5/72

Measured: Percentage survivors

CCCCCCCCCCCCCCCC(=O)OC[C@H](COP(=O)(O)OCCNC(=O)[C@H](C)NC(=O)CC[C@@H](NC(=O)[C@H](C)NC(=O)[C@@H](C)O[C@H]1[C@H](O)[C@@H](CO)OC(O)[C@@H]1NC(C)=O)C(N)=O)OC(=O)CCCCCCCCCCCCCCC (stereo partly drawn) [compound I, N-acetylmuramyl-L-alanyl-D-isoglutaminyl-L-alanine-2-(1,2-dipalmitoyl-sn-glycero-3-hydroxyphosphoryloxy)-ethylamide]
80%: Encephalomyocarditis; day 0, 100 mg/kg single dose | Encephalomyocarditis; day +2, 10 mg/kg single dose | [1]; intranasal, day -7, 1 mg/kg single dose, control 30 | [1]; intravenous, day +1, 10 mg/kg single dose, control 42 | [1]; intravenous, day +1, 100 mg/kg single dose, control 42 | [1]; intravenous, day +6, 10 mg/kg single dose, control 42 | [1]; intravenous, day -1, 1 mg/kg single dose, control 42 | [1]; intravenous, day -5, 1 mg/kg single dose, control 42 | [1]; oral, day +7, 100 mg/kg single dose, control 15
100%: Encephalomyocarditis; day 0, 10 mg/kg single dose | Herpes Simplex 1/Virtue; day -7, 1 mg/kg single dose | [1]; intranasal, day -7, 10 mg/kg single dose, control 30 | [1]; intravenous, day 0, 10 mg/kg single dose, control 42 | [1]; intravenous, day 0, 100 mg/kg single dose, control 42 | [1]; intravenous, day +2, 100 mg/kg single dose, control 42 | [1]; intravenous, day +6, 100 mg/kg single dose, control 42 | [1]; intravenous, day -1, 100 mg/kg single dose, control 42 | [1]; intravenous, day -2, 1 mg/kg single dose, control 42 | [1]; intravenous, day -2, 100 mg/kg single dose, control 42 | [1]; intravenous, day -5, 10 mg/kg single dose, control 42
90%: Encephalomyocarditis; day +2, 1 mg/kg single dose | Herpes Simplex 1/Virtue; day -7, 10 mg/kg single dose | [1]; intravenous, day 0, 1 mg/kg single dose, control 42 | [1]; intravenous, day +2, 1 mg/kg single dose, control 42 | [1]; intravenous, day -1, 10 mg/kg single dose, control 42 | [1]; intravenous, day -2, 10 mg/kg single dose, control 42 | [1]; intravenous, day -5, 100 mg/kg single dose, control 42 | [1]; intravenous, day -7, 100 mg/kg single dose, control 42 | [1]; oral, day +7, 10 mg/kg single dose, control 15
60%: Encephalomyocarditis; day 0, 1 mg/kg single dose | Encephalomyocarditis; day +2, 100 mg/kg single dose | Herpes Simplex 1/TUP; day -7, 1 mg/kg single dose | [1]; intravenous, day +1, 1 mg/kg single dose, control 42
50%: [1]; oral, day +3, 100 mg/kg single dose, control 15 | [1]; oral, day +7, 1 mg/kg single dose, control 15
70%: Herpes Simplex 1/TUP; day -7, 10 mg/kg single dose | [1]; intravenous, day +2, 10 mg/kg single dose, control 42 | [1]; intravenous, day +6, 1 mg/kg single dose, control 42 | [1]; intravenous, day -7, 1 mg/kg single dose, control 42 | [1]; intravenous, day -7, 10 mg/kg single dose, control 42
